The text below walks through data of patent US7642277B2, “Non-nucleoside reverse transcriptase inhibitors” (Boehringer Ingelheim International GmbH, priority 2002, dated 2010).

Experiment [1] addresses HIV-1 RT enzyme (wild type) (Human immunodeficiency virus type 1 group M subtype B, UniProt P04585). The experiment is described as follows: Reverse transcriptase (RT) enzymatic assay (IC50), PicoGreen fluorescence, wild type. The format is biochemical. Conditions: read-out: IC50 WT.
For experiment [2], the target named is HIV-1 RT resistant mutant K103N/Y181C (Human immunodeficiency virus type 1 group M subtype B, UniProt P04585, K690N/Y768C). The experiment is described as follows: Reverse transcriptase (RT) enzymatic assay (IC50), PicoGreen fluorescence, resistant mutant. The experiment is classed as biochemical. Conditions: read-out: IC50 K103N/Y181C.
Experiment [3] has as its system HIV-1 (wild type). Nature of the experiment: P24 cellular assay (EC50), data identified with * in Table 9, wild type. The experiment is classed as cell-based. Conditions: read-out: EC50 WT.
Experiment [4] relates to HIV-1 resistant mutant K103N/Y181C. The experiment is described as follows: P24 cellular assay (EC50), data identified with * in Table 9, resistant mutant. The experiment is classed as cell-based. Conditions: read-out: EC50 K103N/Y181C.

The structures given here were assigned with low confidence; some may be wrong. A value given as a limit tells only on which side of the number the result lay.

As to `Cc1cc(C)c(-n2nnnc2SCC(=O)c2cccs2)c(C)c1`, the IC50 in experiment [1] was > 100 nM. Turning to `Cc1cc(S(N)(=O)=O)ccc1NC(=O)CSc1nnnn1-c1cc(C(F)(F)F)cc(C)c1Cl`, the IC50 in experiment [1] was 50 to 100 nM; in experiment [2], > 100 nM.

For the compound `O=C(CSc1nnnn1-c1c(Cl)cccc1Cl)Nc1ccccc1[N+](=O)[O-]`, the IC50 was < 50 nM in experiment [1] and > 100 nM in experiment [2]. As for `COc1ccc(-n2nnnc2SCC(=O)Nc2ccccc2[N+](=O)[O-])cc1`, in experiment [1], the IC50 was > 100 nM.

For the compound `O=C(CSc1nnnn1-c1cccc2ccccc12)Nc1cccc(Cl)c1Cl`, in experiment [1], the IC50 lay in the range of 50 to 100 nM. Also, the EC50 in experiment [3] is < 50 nM; in experiment [4], > 100 nM. As to `O=C(CCc1occc1-c1cccc2ccccc12)Nc1ccccc1[N+](=O)[O-]`, the IC50 in experiment [1] was > 100 nM.

As to `Cc1cc(C)c(-n2nnnc2SCC(=O)c2cc3ccccc3o2)c(C)c1`, the IC50 in experiment [1] was > 100 nM. On the same count and under the same terms, to `CS(=O)(=O)c1ccccc1NC(=O)CSc1nnnn1-c1cccc2ccccc12` belongs > 100 nM.
